Measurements reported in PubChem BioAssay AID1259414 (Drosophila RNAi Screening Center, 2018)
Aim: 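Genome-wide screen for host control of endosymbiont load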 (primary screen). Cell system: Drosophila JW18 cells infected with Wolbachia. Reagent: long dsRNA against Drosophila genes, 0.25 µg dsRNA per well of a 384-well plate. Time to read-out: 5 days. Conditions: cells persistently infected with Wolbachia before knock-down; no added drug. Read-out: 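Automated imaging of bacterial rRNA staining divided by host cell count, reported as plate-normalised robust z-score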. Reading the numbers: Wolbachia per cell robust z: higher = more Wolbachia per host cell than the plate typical. Active means: 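Active if absolute robust z reaches 1.5 in two or more of three replicates, leaving out multi- or no-target dsRNAs, genes unexpressed in JW18 and A1 wells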.
The screen tested about 24,000 reagents; this is an unselected part of those that have a named target and a result. Over the whole deposit, about 1,210 (5%) got an active call. 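Inactive calls also include excluded dsRNAs with several or no targets, genes unexpressed in JW18, and well A1, regardless of score.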

gene | amplicon | Wolbachia per cell robust z, rep 1 | Wolbachia per cell robust z, rep 2 | Wolbachia per cell robust z, rep 3 | call
SdhD (Succinate dehydrogenase, subunit D) | DRSC14215 | 0.256 | -0.238 | -2.74 | inactive
OtopLb (Otopetrin-like b) | DRSC00594 | -1.94 | -0.567 | 0.469 | inactive
OtopLb (Otopetrin-like b) | DRSC27337 | -0.666 | -1.12 | -0.914 | inactive
MFS17 (Major Facilitator Superfamily Transporter 17) | DRSC37735 | 0.435 | 0.276 | 0.858 | inactive
stv (starvin) | DRSC10111 | -0.969 | 0.838 | -1.68 | inactive
stv (starvin) | DRSC24419 | 0.337 | 0.129 | -3 | inactive
CG33919 | DRSC38888 | 1.44 | -0.389 | 0.634 | inactive
CG17760 | DRSC06694 | 0.981 | 0.43 | 0.965 | inactive
CG17760 | DRSC25493 | -0.215 | -0.382 | 0.0917 | inactive
CG15741 | DRSC19707 | -2.46 | -1.75 | -0.156 | inactive
CG15741 | DRSC24220 | 0.295 | 1.64 | 1.31 | inactive
jef (jet fuel) | DRSC06198 | -0.00177 | 0.207 | -3.43 | inactive
jef (jet fuel) | DRSC24815 | -5.51 | -0.932 | -1.33 | inactive
CG13029 | DRSC09909 | -0.754 | -0.0654 | 0.332 | inactive
Grp170 (Grp170 co-chaperone) | DRSC18524 | 0.0309 | 0.737 | -0.163 | inactive
Grp170 (Grp170 co-chaperone) | DRSC24799 | -0.0513 | -0.336 | -0.57 | inactive
sinah (sina homologue) | DRSC09910 | -2.56 | -0.144 | -1.85 | inactive
sinah (sina homologue) | DRSC22181 | 0.535 | -0.709 | -1.36 | inactive
CG14435 | DRSC23282 | 0.339 | -0.665 | -0.0754 | inactive
CG43102 | DRSC14797 | -2.21 | 0.76 | 1.39 | inactive
CG43102 | DRSC16239 | 0.508 | 0.736 | 0.328 | inactive
CG43102 | DRSC28809 | -0.915 | -0.0939 | -1.52 | inactive
SrpRalpha (Signal recognition particle receptor alpha) | DRSC20251 | 0.514 | 0.0667 | -8.63 | inactive
Wdr81 (WD repeat domain 81) | DRSC02985 | -5.62 | 1.05 | -6.93 | active
Wdr81 (WD repeat domain 81) | DRSC27272 | -4.09 | 0.538 | -0.907 | inactive
CG4741 | DRSC04485 | 0.428 | 0.106 | -5.01 | inactive
CG4741 | DRSC25673 | -1.65 | -0.269 | 0.22 | inactive
CG10874 | DRSC00297 | 0.112 | 0.429 | 0.757 | inactive
CG10874 | DRSC26108 | -0.976 | -0.704 | -1 | inactive
